For one molecule, IC50 results are on record in ChEMBL document CHEMBL1125866, “Aldophosphamide acetal diacetate and structural analogues: synthesis and cytotoxicity studies” (J Med Chem, 1991).

Broadly, the IC50 is the concentration that inhibits the measured activity by half. Read a low IC50 as higher potency.

The subject of this test is L1210. The experiment in a line: Concentration required to reduce the viability of L1210 cells by 50% after 1-h incubation at 37 degrees C. The class given is functional, cell-based. The conditions noted are these: Mus musculus, L1210, 1 h. In outline:
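L1210 murine leukemia cells, exponentially growing, 5 × 10^5/mL in RPMI 1640 with 10% heat-inactivated fetal calf serum, pH 7.4. Exposed to at least seven drug concentrations (0.1–300 μM) for 1 h at 37 °C, washed, regrown drug-free 72 h. MTT reduction read at 570 nm. IC50 from concentration–viability plot, average of duplicates.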

In the case of `O=P1(N(CCCl)CCCl)NC(SCCS(=O)(=O)O)CCO1` (stereo unspecified) [MAFOSFAMIDE], it took 42 µM to reach half-maximal inhibition (IC50).
